The target in this assay is HIV-1 NL4.3 envelope glycoprotein with truncated cytoplasmic tail (ΔCT Env) (HIV-1 NL4.3).

For the substance “soluble CD4 (from UniProt P01730 26-396) (receptor)”, the neutralisation of HIV-1 NL4.3 ΔCT virus by sCD4, IC50 was over 50 µg/mL.

The record behind these values is article PMC8166163.
